Source: PMC5691146

Biological target: RidL_(2–1167)-Avi, biotinylated (Legionella pneumophila)
Assay: SPR

Vps29 (from UniProt Q9UBQ0 1-182) (natural protein)
Kd: 400 nM | kon: > 1e+06 M⁻¹ s⁻¹
